Measurements reported in PMC6287010.

Test system: CCCCCCCC(=O)Oc1ccc([N+](=O)[O-])cc1
Assay: purified protein
Conditions: pH 8.0; 45.0 °C

| Substance | Km [µM] | Vmax [µM/min] |
| --- | --- | --- |
| rEst (Mycobacterium tuberculosis H37Rv) | 67 ± 5 | 7000 |
| rRv1288 (Mycobacterium tuberculosis H37Rv) | 77 ± 7 | 11000 |
